Results of unrelated studies side by side (data: NIAID ChemDB).

Common to all: tests in culture; agent: Varicella zoster virus; cell line: MRC-5; measure: EC50

ECn: concentration that inhibits the pathogen or its effect by n%. Rows are shuffled and stem from different studies.

CCc1cn([C@H]2C[C@H](O)[C@@H](CO)O2)c(=S)[nH]c1=O ; strain or isolate: HOSEN (TK+) ; method: plaque count ; result: 34.6 µM
CC#Cc1cn([C@@H]2O[C@H](COP(=O)(O)Oc3ccc(F)cc3)[C@@H](O)[C@@H]2O)c(=O)[nH]c1=O ; strain or isolate: G-31 ; method: plaque count ; result: >100 µM
Nc1nc2c(ncn2C[C@]2(CO)C[C@H]2CO)c(=O)[nH]1 ; strain or isolate: 6 isolates ; method: plaque count ; result: 0.035 µg/mL
Nc1nc(=O)n([C@@H]2O[C@H](CO)[C@@H](O)[C@@H]2F)cc1I ; strain or isolate: CAQU ; method: plaque count ; result: 0.015 µg/mL
Nc1nc2c(ncn2COC[C@@H](O)CO)c(=O)[nH]1 ; strain or isolate: KMCC ; method: plaque count ; result: >25 µg/mL
CC#Cc1cn([C@@H]2O[C@H](COP(=O)(N[C@H](C(=O)OC)C(C)C)Oc3ccccc3)[C@@H](O)[C@@H]2O)c(=O)[nH]c1=O ; strain or isolate: G-31 ; method: plaque count ; result: >100 µM
COC(=O)/C=C1/[C@@H](O[Si](C)(C)C(C)(C)C)[C@H](n2ccc(=O)[nH]c2=O)O[C@@H]1CO[Si](C)(C)C(C)(C)C ; method: plaque count ; result: 1.6 µM
COc1ncnc2c1ncn2[C@@H]1O[C@H](CO)[C@@H](O)[C@@H]1O ; strain or isolate: 5 clinical isolates ; method: cytopathic effect ; result: 1.8 µM
CC(C)(C)[Si](C)(C)OC[C@H]1O[C@@H](n2ccc(=O)[nH]c2=O)[C@H](O[Si](C)(C)C(C)(C)C)/C1=C/CO ; method: plaque count ; result: 3 µM
Nc1nc2c(ncn2OCC2COP(=O)(O)CO2)c(=O)[nH]1 ; strain or isolate: ELLEN ; method: plaque count ; result: 26 µM
Nc1nc(=S)n([C@@H]2O[C@H](CO)[C@@H](O)[C@@H]2O)cc1I ; strain or isolate: HOSEN ; method: plaque count ; result: 3.9 µM
Nc1nc(N)c2ncn(OCCOCP(=O)(O)O)c2n1 ; strain or isolate: ELLEN ; method: plaque count ; result: 3.9 µg/mL
CC#Cc1cn([C@@H]2O[C@H](COP(=O)(OCC(Cl)(Cl)Cl)Oc3ccccc3)[C@@H](O)[C@@H]2O)c(=O)[nH]c1=O ; strain or isolate: G-31 ; method: plaque count ; result: >100 µM
Nc1nc2c(ncn2C[C@]2(CO)C[C@H]2CO)c(=O)[nH]1 ; strain or isolate: Kawaguchi ; method: plaque count ; result: 0.26 µg/mL
Nc1nc(=S)n([C@@H]2O[C@H](CO)[C@@H](O)[C@@H]2O)cc1/C=C/c1ccccc1 ; strain or isolate: CAQU (TK+) ; method: plaque count ; result: >235.4 µM
Nc1nc(=S)n([C@H]2C[C@H](O)[C@@H](CO)O2)cc1Br ; strain or isolate: HOSEN ; method: plaque count ; result: 8.43 µM
Nc1nc2c(ncn2CCC(CO)CO)c(=O)[nH]1 ; strain or isolate: 5 isolates ; method: plaque count ; result: 3.1 µg/mL
Nc1nc(=S)n([C@@H]2O[C@H](CO)[C@@H](O)[C@@H]2O)cc1/C=C/Br ; strain or isolate: Kanno-Kohmura (TK-) ; method: plaque count ; result: >213 µM
Nc1ccn([C@@H]2O[C@H](CO)[C@@H](O)[C@H]2O)c(=S)n1 ; strain or isolate: HOSEN ; method: plaque count ; result: >386 µM
Nc1nc(N)c2ncn(OCC(CO)OCP(=O)(O)O)c2n1 ; strain or isolate: ELLEN ; method: plaque count ; result: >300 µM
CCc1cn([C@@H]2O[C@H](CO)[C@@H](O)[C@@H]2O)c(=S)[nH]c1=O ; strain or isolate: Kanno-Kohmura (TK-) ; method: plaque count ; result: >264.9 µM
NC1=NC2C(C=CN2CC(CO)CCO)C(=O)N1 ; strain or isolate: MOLLY ; method: plaque count ; result: 0.62 µM
CC#Cc1cn([C@@H]2O[C@H](COP(=O)(O)Oc3ccc(OC)cc3)[C@@H](O)[C@@H]2O)c(=O)[nH]c1=O ; strain or isolate: G-31 ; method: plaque count ; result: >100 µM
Nc1nc2c(ncn2OCC2COP(=O)(O)CO2)c(=O)[nH]1 ; strain or isolate: ELLEN ; method: plaque count ; result: 26 µg/mL
CC#Cc1cn([C@@H]2O[C@H](COP(=O)(O)OCCCCCCCCCCCC)[C@@H](O)[C@@H]2O)c(=O)[nH]c1=O ; strain or isolate: G-31 ; method: plaque count ; result: 100 µM
C[C@H]1[C@H](O)[C@@H](CO)O[C@H]1n1cc(I)c(N)nc1=O ; strain or isolate: Kanno-Kohmura ; method: plaque count ; result: >50 µg/mL
CC(C)(C)[Si](C)(C)OC[C@H]1O[C@@H](n2ccc(=O)[nH]c2=O)[C@H](O[Si](C)(C)C(C)(C)C)C1(O)[C@H](N=[N+]=[N-])C(N)=O ; method: plaque count ; result: >5 µM
Nc1nc(N)c2ncn(OCC(CO)OCP(=O)(O)O)c2n1 ; strain or isolate: ELLEN ; method: plaque count ; result: >300 µg/mL
CC(C)(C)[Si](C)(C)OC[C@H]1O[C@@H](n2ccc(=O)[nH]c2=O)[C@H](O[Si](C)(C)C(C)(C)C)[C@@]12O[C@H]2C(=O)NO ; method: plaque count ; result: 13 µM
C[C@H]1[C@H](O)[C@@H](CO)O[C@H]1n1cc(I)c(=O)[nH]c1=O ; strain or isolate: CAQU ; method: plaque count ; result: 0.21 µg/mL
Nc1nc(=S)n([C@@H]2O[C@H](CO)[C@@H](O)[C@@H]2O)cc1Br ; strain or isolate: HOSEN ; method: plaque count ; result: 88.2 µM
CC(O)c1cn([C@@H]2O[C@H](CO)[C@@H](O)[C@@H]2O)c(=S)nc1N ; strain or isolate: CAQU (TK+) ; method: plaque count ; result: >205.6 µM
Cc1cn([C@@H]2O[C@H](CO[Si](C)(C)C(C)(C)C)C3(O[C@H]3C(=O)NN)[C@H]2O[Si](C)(C)C(C)(C)C)c(=O)[nH]c1=O ; method: plaque count ; result: 3.9 µM
O=c1[nH]c(=S)n([C@H]2C[C@H](O)[C@@H](CO)O2)cc1Cl ; strain or isolate: HOSEN ; method: plaque count ; result: >360 µM

A second listing of 4 rows from above:

| smiles | strain or isolate | method | result |
|---|---|---|---|
| CC#Cc1cn([C@@H]2O[C@H](COP(=O)(O)Oc3ccc(F)cc3)[C@@H](O)[C@@H]2O)c(=O)[nH]c1=O | G-31 | plaque count | >100 µM |
| Nc1ccn([C@@H]2O[C@H](CO)[C@@H](O)[C@H]2O)c(=S)n1 | HOSEN | plaque count | >386 µM |
| COc1ncnc2c1ncn2[C@@H]1O[C@H](CO)[C@@H](O)[C@@H]1O | 5 clinical isolates | cytopathic effect | 1.8 µM |
| Nc1nc2c(ncn2OCC2COP(=O)(O)CO2)c(=O)[nH]1 | ELLEN | plaque count | 26 µg/mL |